# Measured values published in US20260138988A1, “Spiropyrrolidine Derived Antiviral Agents” (Enanta Pharmaceuticals, Inc., priority 2021, published 2026).
# Target: SARS-CoV-2 3CL-protease (Severe acute respiratory syndrome coronavirus 2, UniProt P0DTD1)
# Assay: SARS-CoV-2 3C-Like (3CL) Protease Fluorescence Assay (FRET)
# Conditions: SARS-CoV-2 3CL-protease 10 nM, test compounds 0-10 μM, duplicate
# Method: SARS-CoV-2 3C-Like (3CL) Protease Fluorescence Assay (FRET):
# Recombinant SARS-CoV-2 3CL-protease was expressed and purified. TAMRA-SITSAVLQSGFRKMK-Dabcyl-OH peptide 3CLpro substrate was synthesized. Black, low volume, round-bottom, 384 well microplates were used. In a typical assay, 0.85 μL of test compound was dissolved in DMSO then incubated with SARS-CoV-2 3CL-protease (10 nM) in 10 μL assay buffer (50 mM HEPES [pH 7.5], 1 mM DTT, 0.01% BSA, 0.01% Triton-X 100) for 30 min at RT. Next, 10 μL of 3CL-protease substrate (40 μM) in assay buffer was added and the assays were monitored continuously for 1 h in an Envision multimode plate reader operating in fluorescence kinetics mode with excitation at 540 nm and emission at 580 nm at RT. No compound (DMSO only) and no enzyme controls were routinely included in each plate. All experiments were run in duplicate.
# Data Analysis: SARS-CoV-2 3CL-protease enzyme activity was measured as initial velocity of the linear phase (RFU/s) and normalized to controlled samples DMSO (100% activity) and no enzyme (0% activity) to determine percent residual activity at various concentrations of test compounds (0-10 μM). Data were fitted to normalized activity (variable slope) versus concentration fit in GraphPad Prism 7 to determine IC50. All experiments were run in duplicate, and IC50 ranges are reported as follows: A<0.1 μM; B 0.1-1 μM; C>1 μM.
smiles,measurement,value
C[C@@H]1NC(=O)CCCCc2ccc3c(c2)[C@@]2(C[C@@H](C#N)N(C2)C(=O)[C@H](CC(C)(C)C)NC1=O)C(=O)N3,IC50,100 to 1000 nM
